PubChem BioAssay AID504761 | Drosophila RNAi Screening Center | 2011

Screen: 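Genome-wide fly cell screen for genes dengue virus requires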 (primary screen)
Cells: D.Mel-2 cells from Drosophila
Knock-down reagent: long dsRNA against Drosophila genes
Treatment: infection with dengue virus type 2; dose and infection time not stated
Measurement: 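Cells stained for dengue envelope protein and imaged; percent of infected cells per well on duplicate plates, ranked by infection, with stained nuclei counted for cell number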
Direction: infection score: higher = more virus-infected cells; cell count: higher = more cells in the well
Call rule: 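Low infection ranks in the two replicates (chance level up to 0.065) followed by a retest with a 1.5-fold or larger significant decrease, p below 0.05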
Meaning of the calls: active = confirmed: knock-down lowers infection; inactive = not picked or not confirmed
The screen tested about 22,000 reagents; shown is an unselected part of those with a known target gene and a result. In the full data, 116 (0.52%) are marked active. 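Calls depend on retest data that are not deposited; infection was ranked per plate without normalising between plates; the unit of the infection score is not given.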 The raw values are shown without normalisation. A number with no mark means an inactive call. Not given: the amount of reagent, the time to read-out.

The first 2 records, to show the layout:
target gene,amplicon,"infection score, replicate 1","infection score, replicate 2","cell count, replicate 1","cell count, replicate 2"
trv,DRSC13846,10.2,6.01,5578,5306
trv,DRSC14560,,1.27,310,7028

The list itself, from the start:
target gene,amplicon,"infection score, replicate 1","infection score, replicate 2","cell count, replicate 1","cell count, replicate 2"
trv,DRSC13846,10.2,6.01,5578,5306
trv,DRSC14560,,1.27,310,7028
trv,DRSC14561,3.46,1.43,6563,558
trv,DRSC25527,14.2,10.2,5985,6253
trv,DRSC25789,1.14,6.94,6394,6552
Ack,DRSC08135,0.9,2.28,5668,5569
Ack,DRSC28013,10.6,34.1,5982,5143
CG9826,DRSC04570,8.75,8.5,6444,6954
CG11151,DRSC19387,1.15,4.77,6718,6689
CG15036,DRSC17968,12,5.65,4271,5473
CG15036,DRSC26078,8.62,6.92,6151,6505
CG9485,DRSC04557,1.28,26.7,6571,5385
Daxx,DRSC03255,4.26,6.34,5655,5802
Daxx,DRSC29680,,,388,371
bves,DRSC20520,1.33,2.52,6107,4878
bves,DRSC20555,10.8,2.58,5425,6116
indra,DRSC08558,8.68,12.7,5957,5905
indra,DRSC26845,3.88,7,6239,6426
Obp56b,DRSC06551,1.74,2.29,5858,6250
ATP8A,DRSC05421,0.92,1.98,6628,5920
ATP8A,DRSC06643,12.3,9.73,5940,6250
ATP8A,DRSC06644,32.3,11.7,2871,1433
Pink1,DRSC18361,3.51,2.93,5975,6391
Snx21,DRSC00564,6.09,4.26,6093,6037
Snx21,DRSC28493,10.9,17.4,2562,3642
Cpr65Az,DRSC09882,0.94,1.13,5946,5582
Cpr65Az,DRSC22057,4.92,0.76,6124,6687
Cpr65Az,DRSC23964,9.61,18.6,5422,5687
ZnT86D,DRSC16091,3.18,5.33,6669,6716
twf,DRSC15466,6.05,11.2,6499,6403
CG15824,DRSC00473,3.77,1.56,6364,6341
CG15824,DRSC27412,2.92,18.9,6884,6542
fok,DRSC02103,12.1,3.71,5920,6584
fok,DRSC23907,3.97,1.3,5821,6164
CG18223,DRSC10306,17.2,3.95,6396,6053
Abi,DRSC14099,24.4,18.6,6337,6269
Abi,DRSC27275,27.3,7.2,6033,5705
Fen1,DRSC07415,7.29,15.8,6516,5751
GstT3,DRSC20541,7.39,1.42,3966,6062
pod1,DRSC18362,7.32,3.75,6752,6584
pod1,DRSC23544,1.79,5.54,5925,5761
CG4271,DRSC00649,2.42,2.42,6153,6200
CG31468,DRSC13637,1.01,2.04,5933,6178
snu,DRSC16589,2.86,2.53,5172,5888
CG6055,DRSC02923,2.73,12.4,6039,5870
CG42264,DRSC18074,2.09,2.94,6618,6944
CG42264,DRSC18075,13.9,11,5866,5375
CG42264,DRSC28051,4.99,22.2,5950,4944
Pdfr,DRSC18614,3.65,4.72,6354,2245
CG9512,DRSC20189,6.24,6.28,6603,6133
Pgant8,DRSC10801,0.62,0.88,6005,6254
Pgant8,DRSC26909,1.3,3.23,6396,6505
CG11786,DRSC14389,1.13,12.3,6529,5576
CG18269,DRSC02660,7.01,4.84,5778,5949
CG3792,DRSC02725,1.94,20,6172,4263
Ctr1A,DRSC18336,5.75,6.95,5952,5742
pds5,DRSC06670,33.6,16.6,4439,4623
alph,DRSC15398,5.65,7.19,5614,6245
alph,DRSC28570,,,378,410
